# B1: PapG^LD N96S WTv1: WT PapG lectin domain (V1, first PapG operon), N96S removes non-native glycosylation, His-tagged; SEQ ID NO: 13 (protein)
# chain: METDTLLLWVLLLWVPGSTGWNNIVFYSLGNVNSYQGGNVVITQRPQFITSWRPGIATVTWNQCNGPEFADGSWAYYREYIAWVVFPKKVMTKNGYPLFIEVHNKGSWSEENTGDSDSYFFLKGYKWDERAFDAGNLCQKPGETTRLTEKFNDIIFKVALPADLPLGDYSVTIPYTSGIQRHFASYLGARFKIPYNVAKTLPRENEMLFLFKNIGG
# modifications: His tag
# Test system: ExpiCHO cells
# Assay: Expression of PapG recombinant proteins in ExpiCHO cells (Western blot, Octet)
# Type: cell-based
# Details: plasmid transfected ExpiCHO cells
molecule,measurement,value
B1,expression level in culture supernatant,slightly higher levels compared to WT PapGLD
